# In US20210251975A1, “USE OF CICLOPIROX FOR INHIBITING HBV CORE ASSEMBLY” (GWANGJU INSTITUTE OF SCIENCE AND TECHNOLOGY, priority 2018, published 2021):
# Test system: HBV-expressing HepG2.2.15 cell lines and HBV-expressing liver cell lines
# Assay: MTS cell viability
smiles,measurement,setting,value
Cc1cc(C2CCCCC2)n(O)c(=O)c1 [ciclopirox],cell viability at the highest concentration,10 μM,maintained
same,decrease in cell viability,HBV-expressing cell lines or HBV-overexpressing cell lines,not observed
